Test results published in PubChem BioAssay AID488965 (Broad Institute, 2010).
The entries are a selection whose mix differs from that of the whole data set. Active and inactive are the calls of the source. Rule as the data show it: active = inhibition above about 30% (passing the limit was not always enough); inconclusive = no clear call, values can overlap the other calls.

test system: PvdQ acylase [Pseudomonas aeruginosa LESB58]; experiment: P. aeruginosa PvdQ acylase inhibitors, primary screen, biochemical, fluorescence, plate reader and imaging, single point (AID 488965); details: purified PvdQ acylase, at 10 µM, active compounds read high;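 also: 0% = vehicle neutral wells and 100% = reference inhibitor wells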

**Q.** `Cc1cc(N(CCCl)CCCl)ccc1C=O` was tested. Which inhibition did it give?
**A.** Its inhibition is inactive: -10.8%.

**Q.** Which inhibition does the source give for `CCCN1CCC(Nc2cc(OC)cc(OC)c2)CC1` here?
**A.** Its inhibition is inactive: -17.8%.

**Q.** With `c1ccc(CN2CCC(Nc3ccccc3)CC2)cc1` as the compound, how does the inhibition read?
**A.** The inhibition was inactive: -8.25%.

**Q.** With `CN(C)C1(CNC(=O)c2cccc(C#N)c2)CCCCC1` as the compound, how does the inhibition read?
**A.** Its inhibition is inactive: -0.0548%.

**Q.** Which inhibition does the source give for `CC(C)(C)OC(=O)N1CCC(N(C(=O)c2ccccc2)c2ccc(Cl)cc2)CC1` here?
**A.** The inhibition was inactive: -17.8%.

**Q.** How did the inhibition turn out when `N#Cc1ccc(C(=O)NCC2(N3CCCCC3)CCCCC2)cc1` was run?
**A.** Its inhibition is inactive: -0.296%.

**Q.** `O=C(OC1CN2CCC1CC2)C1c2ccccc2C=Cc2ccccc21` (centres undefined) was tested. Which inhibition did it give?
**A.** Its inhibition is inactive: -17.4%.

**Q.** With `N/C(=N\O)c1c(N)no[n+]1[O-]` as the compound, how does the inhibition read?
**A.** The inhibition was inactive: -16.2%.

**Q.** With `CCOC(=O)N1CCC(Nc2ccc(C)cc2)CC1` as the compound, how does the inhibition read?
**A.** Its inhibition is inactive: 3.22%.

**Q.** How did the inhibition turn out when `COc1ccc(C(=O)NCC2(N3CCOCC3)CCCCC2)cc1OC` was run?
**A.** Its inhibition is inactive: 12%.

**Q.** With `O=C(NCC1(N2CCOCC2)CCCCC1)c1cc(Br)ccc1Cl` as the compound, how does the inhibition read?
**A.** The inhibition was inactive: -8.16%.

**Q.** Which inhibition does the source give for `COc1cc(C(=O)NCC2(N3CCOCC3)CCCCC2)cc(OC)c1C` here?
**A.** Its inhibition is inactive: -8.25%.

**Q.** `CN1CCC(Nc2ccc(Cl)cc2)CC1` was tested. Which inhibition did it give?
**A.** Its inhibition is inactive: -8.65%.

**Q.** For `CCC(CO)(C(=O)OC1CN2CCC1CC2)c1ccccc1` (centres undefined), which inhibition is on record?
**A.** The inhibition was inactive: 2.52%.

**Q.** Which inhibition does the source give for `COc1cccc(C(=O)N(c2cc(C)cc(C)c2)C2CCN(C(=O)OC(C)(C)C)CC2)c1` here?
**A.** Its inhibition is inactive: -5.25%.

**Q.** With `COc1cc(OC)cc(C(=O)NCC2(N3CCOCC3)CCCCC2)c1` as the compound, how does the inhibition read?
**A.** Its inhibition is inactive: -4.4%.

**Q.** For `CCCOc1ccc(C(=O)NCC2(N(C)C)CCCCC2)cc1`, which inhibition is on record?
**A.** The inhibition was inactive: -24%.

**Q.** Which inhibition does the source give for `O=C(O)C1(Nc2ccccc2)CCN(Cc2ccccc2)CC1` here?
**A.** The inhibition was inactive: -7.46%.

**Q.** How did the inhibition turn out when `CC(C)(C)OC(=O)N1CCC(Nc2ccccc2)CC1` was run?
**A.** The inhibition was inactive: 12.3%.

**Q.** Which inhibition does the source give for `CN1CCC(Nc2ccc(F)c(Cl)c2)CC1` here?
**A.** The inhibition was inactive: -2.18%.

**Q.** `CCOc1ncccc1C(=O)NCC1(N2CCOCC2)CCCCC1` was tested. Which inhibition did it give?
**A.** The inhibition was inactive: -13.6%.

**Q.** Which inhibition does the source give for `Cn1c(=O)[nH]cc(N(CCCl)CCCl)c1=O` here?
**A.** The inhibition was inactive: -14.9%.

**Q.** With `CN(C)c1ccc(C(=O)NCC2(N3CCCCC3)CCCCC2)cc1` as the compound, how does the inhibition read?
**A.** The inhibition was inactive: -1.23%.

**Q.** For `O=C(NCC1(N2CCCCC2)CCCCC1)c1ccco1`, which inhibition is on record?
**A.** The inhibition was inactive: 4.29%.

**Q.** `CCN1CCC(Nc2cccc(F)c2)CC1` was tested. Which inhibition did it give?
**A.** Its inhibition is inactive: -23.1%.

**Q.** For `Cc1ccccc1NC1(C#N)CCN(Cc2ccccc2)CC1`, which inhibition is on record?
**A.** Its inhibition is inactive: -16.2%.

**Q.** `Cc1ccc(NC2(C#N)CCN(Cc3ccccc3)CC2)cc1` was tested. Which inhibition did it give?
**A.** Its inhibition is inactive: -1.72%.

**Q.** How did the inhibition turn out when `Fc1ccccc1NC1CCN(Cc2ccccc2)CC1` was run?
**A.** Its inhibition is inactive: -6.04%.

**Q.** With `Cc1ccc(C(=O)NCC2(N3CCCCC3)CCCCC2)o1` as the compound, how does the inhibition read?
**A.** The inhibition was inactive: -11.2%.

**Q.** With `COc1cc(OC)cc(C(=O)NCC2(N3CCCCC3)CCCCC2)c1` as the compound, how does the inhibition read?
**A.** The inhibition was inactive: -1.77%.

**Q.** How did the inhibition turn out when `CC(=O)N(c1ccccc1)C1CCNCC1` was run?
**A.** Its inhibition is inactive: -0.338%.

**Q.** Which inhibition does the source give for `COc1cc(C(=O)NCC2(N(C)C)CCCCC2)ccc1OC(F)F` here?
**A.** The inhibition was inactive: 11.9%.

**Q.** How did the inhibition turn out when `CCOC(=O)N1CCC(Nc2cccc(C)c2)CC1` was run?
**A.** The inhibition was inactive: -11.7%.

**Q.** Which inhibition does the source give for `CCOC(=O)N1CCC(Nc2ccc(F)cc2)CC1` here?
**A.** The inhibition was inactive: -9.02%.

**Q.** `COc1ccc(NC2CCN(CCc3ccccc3)CC2)c(OC)c1` was tested. Which inhibition did it give?
**A.** Its inhibition is inactive: 4.57%.

**Q.** For `O=C(NCC1(N2CCCCC2)CCCCC1)c1ccc(F)cc1`, which inhibition is on record?
**A.** Its inhibition is inactive: -3.29%.

**Q.** With `CCCCOc1ccc(C(=O)NCC2(N3CCOCC3)CCCCC2)cc1` as the compound, how does the inhibition read?
**A.** Its inhibition is inactive: 11.8%.

**Q.** With `O=P1(N(CCCl)CCCl)SCCCS1` as the compound, how does the inhibition read?
**A.** Its inhibition is inactive: 4.5%.

**Q.** With `CCOc1ccc(C)cc1CN(CCCl)CCCl` as the compound, how does the inhibition read?
**A.** Its inhibition is inactive: 5.64%.

**Q.** For `O=C1CCN(Cc2ccccc2)CC1`, which inhibition is on record?
**A.** The inhibition was inactive: -9.96%.

**Q.** How did the inhibition turn out when `CCOC(=O)N1CCC(Nc2ccc(OC)cc2)CC1` was run?
**A.** Its inhibition is inactive: -2.13%.

**Q.** With `COc1ccc(Cl)cc1C(=O)NCC1(N2CCOCC2)CCCCC1` as the compound, how does the inhibition read?
**A.** Its inhibition is inactive: -11.4%.

**Q.** `O=C(OC1CN2CCC1CC2)C1c2ccccc2Oc2ccccc21` (centres undefined) was tested. Which inhibition did it give?
**A.** The inhibition was inactive: -14.3%.

**Q.** Which inhibition does the source give for `O=C(NCC1(N2CCCCC2)CCCCC1)c1ccc(Cl)s1` here?
**A.** Its inhibition is inactive: -13.9%.

**Q.** How did the inhibition turn out when `N#CC1(Nc2ccccc2)CCN(Cc2ccccc2)CC1` was run?
**A.** Its inhibition is inactive: -10.3%.

**Q.** How did the inhibition turn out when `O=C(NCC1(N2CCOCC2)CCCCC1)c1cc2ccccc2o1` was run?
**A.** Its inhibition is inactive: -11.5%.

**Q.** With `Cc1cc(C)cc(N(C(=O)c2ccccc2)C2CCN(C(=O)OC(C)(C)C)CC2)c1` as the compound, how does the inhibition read?
**A.** The inhibition was inactive: -2.9%.

**Q.** How did the inhibition turn out when `O=C(NCC1(N2CCCCC2)CCCCC1)c1ccc(Cl)nc1` was run?
**A.** The inhibition was inactive: -8.09%.

**Q.** For `Cc1cccc(NC2(C#N)CCN(Cc3ccccc3)CC2)c1`, which inhibition is on record?
**A.** Its inhibition is inactive: -8.05%.

**Q.** `CSc1ccccc1C(=O)NCC1(N2CCCCC2)CCCCC1` was tested. Which inhibition did it give?
**A.** The inhibition was inactive: 5.83%.

**Q.** How did the inhibition turn out when `O=C(NCC1(N2CCCCC2)CCCCC1)c1cccs1` was run?
**A.** The inhibition was inactive: 5.11%.

**Q.** `O=C(NCC1(N2CCCCC2)CCCCC1)c1ccc(=O)[nH]c1` was tested. Which inhibition did it give?
**A.** Its inhibition is inactive: -15.8%.

**Q.** `CC(C)(C)OC(=O)N1CCC(N(C(=O)c2ccccc2)c2ccc(F)cc2)CC1` was tested. Which inhibition did it give?
**A.** The inhibition was inactive: 19%.

**Q.** For `COc1ccc(C(=O)NCC2(N3CCCCC3)CCCCC2)c(OC)c1OC`, which inhibition is on record?
**A.** The inhibition was inactive: 9.26%.

**Q.** With `COc1ccc(C(=O)NCC2(N3CCCCC3)CCCCC2)cc1` as the compound, how does the inhibition read?
**A.** The inhibition was inactive: -13.2%.

**Q.** With `CCCOc1ccc(C(=O)NCC2(N(C)C)CCCCC2)cc1OC` as the compound, how does the inhibition read?
**A.** Its inhibition is inactive: -9.27%.

**Q.** Which inhibition does the source give for `O=C(NCC1(N2CCCCC2)CCCCC1)c1cncc(Br)c1` here?
**A.** The inhibition was inactive: -2.36%.

**Q.** How did the inhibition turn out when `CN1CCC(Nc2cccc(F)c2)CC1` was run?
**A.** The inhibition was inactive: -3.05%.

**Q.** For `O=C(NCC1(N2CCOCC2)CCCCC1)c1cc(F)c(F)cc1Cl`, which inhibition is on record?
**A.** Its inhibition is inactive: -17.2%.

**Q.** With `COc1cc(OC)c(C(=O)NCC2(N(C)C)CCCCC2)cc1OC` as the compound, how does the inhibition read?
**A.** Its inhibition is inactive: 4.64%.

**Q.** For `CN(C)c1cccc(C(=O)NCC2(N3CCCCC3)CCCCC2)c1`, which inhibition is on record?
**A.** The inhibition was inactive: -3.85%.

**Q.** For `COc1ccc(CN(CCCl)CCCl)cc1Cl`, which inhibition is on record?
**A.** The inhibition was inactive: -14.9%.

**Q.** How did the inhibition turn out when `CC(C)c1ccc(NC2CCN(C(=O)OC(C)(C)C)CC2)cc1` was run?
**A.** Its inhibition is inactive: -11.2%.

**Q.** `CC(C)c1ccc(C(=O)NCC2(N3CCOCC3)CCCCC2)cc1` was tested. Which inhibition did it give?
**A.** Its inhibition is inactive: -4.03%.

**Q.** Which inhibition does the source give for `COc1ccc(NC2CCN(C(=O)OC(C)(C)C)CC2)cc1` here?
**A.** Its inhibition is inactive: -14%.

**Q.** For `CN1CCN(CCOC(=O)C(O)(c2ccccc2)c2ccccc2)CC1`, which inhibition is on record?
**A.** The inhibition was inactive: -1.95%.

**Q.** For `O=C(NCC1(N2CCOCC2)CCCCC1)c1cc(=O)[nH]c2ccccc12`, which inhibition is on record?
**A.** Its inhibition is inactive: -10.3%.

**Q.** With `COc1cc(C(=O)NCC2(N3CCCCC3)CCCCC2)ccc1OC(F)F` as the compound, how does the inhibition read?
**A.** Its inhibition is inactive: -17.7%.

**Q.** How did the inhibition turn out when `O=C(NCC1(N2CCCCC2)CCCCC1)c1cccc(C(F)(F)F)c1` was run?
**A.** Its inhibition is inactive: -5.56%.

**Q.** With `O=C(NCC1(N2CCCCC2)CCCCC1)c1cccc([N+](=O)[O-])c1` as the compound, how does the inhibition read?
**A.** Its inhibition is inactive: 8.93%.

**Q.** Which inhibition does the source give for `CSc1ccc(C(=O)NCC2(N3CCOCC3)CCCCC2)cc1` here?
**A.** The inhibition was inactive: 3.66%.

**Q.** For `N#CC1(Nc2ccccc2)CCN(CCc2ccccc2)CC1`, which inhibition is on record?
**A.** The inhibition was inactive: -11.2%.

**Q.** How did the inhibition turn out when `CCN1CCC(Nc2ccc(Cl)cc2)CC1` was run?
**A.** Its inhibition is inactive: -11.6%.

**Q.** Which inhibition does the source give for `O=C(NCC1(N2CCCCC2)CCCCC1)c1ccc(OC(F)F)cc1` here?
**A.** The inhibition was inactive: -12.1%.
